A mixed list of measured activities; the numbers were collected in NIAID ChemDB.

Shared fields: cytotoxicity tests; read-out: CC50

Blank or dashed fields: not listed here. Rows are shuffled and stem from different studies. CCn is the concentration with n% toxicity to the cells.

smiles,cells,read by,value
N#Cc1ccccc1CNc1ccc(Oc2ccc(Cl)cc2O)c(Cl)c1,Human foreskin fibroblasts,fluorescence,>10 µM
NC(=S)Nc1cccc(OCCCCCOc2cccc3cccnc23)c1,Ava5-EG(delta4AB)SEAP,MTS,>1 µM
Cc1cc(=O)oc2cc(OCc3cn(Cc4cc(=O)oc5cc(Cl)ccc45)nn3)ccc12,HBL100,MTT,54.39 µg/mL
Fc1ccc(-c2nn3c(N4CCCCC4)cccc3c2-c2ccnc(NC3CCCC3)n2)cc1,VERO 76,-,>40 µM
c1ccc(-n2nccc2CCCCCCOc2ccc3c(c2)oc2ccccc23)cc1,WIS HELA,crystal violet,>50 µg/mL
O=C(C(=O)N1CCN(C(=O)c2ccccc2)CC1)c1c[nH]c2c(-c3cn[nH]n3)ncc(F)c12,HeLa,trypan blue,>100 µM
c1ccc(-n2nccc2CCCCCCOc2ccc3ccccc3c2)cc1,WIS HELA,crystal violet,50 µg/mL
Fc1ccc(-c2nn3c(NC4CCCC4)cccc3c2-c2ccnc(Nc3ccccc3)n2)cc1,VERO 76,-,>40 µM
Cc1cc(OCCCCCCn2ccnc2)c2ccccc2n1,WIS HELA,crystal violet,50 µg/mL
CCCCOc1ccc(-c2cc3c(-c4ccnc(NC5CCCC5)n4)ccc(NC4CCCC4)n3n2)cc1,VERO 76,-,>100 µM
Fc1ccc(-c2nn3c(NN4CCCC4)cccc3c2-c2ccnc(NC3CCCC3)n2)cc1,VERO 76,-,>40 µM
NC(=S)Nc1ccc(OCCCCCc2ccccc2)cc1,Ava5-EG(delta4AB)SEAP,MTS,>1 µM
C/C(=C\Cn1cnc2c(Cl)ncnc21)CO,CCL18,-,>100 µg/mL
NC(=S)Nc1cccc(OCCCCCOc2cccc(Oc3ccccc3)c2)c1,Ava5-EG(delta4AB)SEAP,MTS,>1 µM
Nc1nc(-c2ccc(NC(=O)CN(Cc3ccncc3)C(=O)C3CCCCC3)cc2)cs1,BHK-21/C13,-,>73 µM
COC(=O)N[C@H](C(=O)N[C@H](CCC[C@@H](CO)N(CCC(C)C)S(=O)(=O)c1ccc(CO)cc1)C(F)(F)F)C(c1ccccc1)c1ccccc1,T lymphoid cells,microscopy,>10 µM
CSc1nsc(-c2ccc(C)cc2)c1C#N,HEP-2,-,18 µM
COC(=O)N[C@H](C(=O)N[C@@H](C)CCC[C@@H](CO)N(C(C)C)S(=O)(=O)c1ccc(N)cc1)C(c1ccccc1)c1ccccc1,T lymphoid cells,microscopy,>10 µM
COc1cnc(-n2cnc(C(=O)N(C)C)n2)c2[nH]cc(C(=O)C(=O)N3CCN(C(=O)c4ccccc4)CC3)c12,HeLa,trypan blue,>100 µM
Nc1nc2c(ncn2CC=C(CO)CO)c(=O)[nH]1,CCL18,-,>100 µg/mL
CC[C@@H](CCC[C@@H](CO)N(CCC(C)C)S(=O)(=O)c1ccc(N)cc1)NC(=O)[C@@H](NC(=O)OC)C(c1ccccc1)c1ccccc1,T lymphoid cells,microscopy,>10 µM
CSc1nsc(-c2cccc(Cl)c2)c1C#N,L929,-,10 µM
Brc1ccc(-c2cc3c(-c4ccnc(NC5CCC5)n4)ccc(NC4CCC4)n3n2)cc1,VERO 76,-,>40 µM
COc1cnc(-n2cnc(C)c2)c2[nH]cc(C(=O)C(=O)N3CCN(C(=O)c4ccccc4)CC3)c12,HeLa,trypan blue,>100 µM
N#Cc1c(-c2ccccc2)nsc1Cl,L929,-,20 µM
COc1cccc2c1C(=O)c1c(O)c3c(c(O)c1C2=O)C[C@@](O)(C(=O)CO)C[C@@H]3O[C@H]1C[C@H](N)[C@H](O)[C@H](C)O1,HBL100,MTT,0.3 µM
CC(=O)Nc1cccc(-c2cc3c(-c4ccnc(NC5CCCC5)n4)ccc(NC4CCCC4)n3n2)c1,VERO 76,-,>40 µM
CCCCNc1nccc(-c2c(-c3ccc(F)cc3)nn3c(NC4CC4)cccc23)n1,VERO 76,-,>40 µM
Cc1cc(C)n(CCCCCCOc2ccc3c(c2)oc2ccccc23)n1,WIS HELA,crystal violet,10 µg/mL
COc1cnc(-n2ccnn2)c2[nH]cc(C(=O)C(=O)N3CCN(C(=O)c4ccccc4)CC3)c12,HeLa,trypan blue,>100 µM
NC(=S)Nc1cccc(OCCCCCOc2cccnc2)c1,Ava5-EG(delta4AB)SEAP,MTS,>1 µM
CCCCNc1nccc(-c2c(-c3ccc(F)cc3)nn3c(NCCOC)cccc23)n1,VERO 76,-,33 µM
c1cc(OCC2CC2)cc(-c2cc3c(-c4ccnc(NC5CCCC5)n4)ccc(NC4CCCC4)n3n2)c1,VERO 76,-,>40 µM
COC(=O)N[C@H](C(=O)N[C@@H](C)CCC[C@@H](CO)N(C(C)C)S(=O)(=O)c1ccc([C@@H](C)O)cc1)C(c1ccccc1)c1ccccc1,T lymphoid cells,microscopy,>10 µM
CCc1ccc(Oc2ccc(Cl)cc2Cl)c(O)c1,Human foreskin fibroblasts,fluorescence,>10 µM
COC(=O)C1=C(C)NC(c2ncc(F)cc2F)=NC1c1ccc(F)cc1Cl,Primary human hepatocytes,MTT,35 µM
OC[C@H]1O[C@@H](n2ccc3c(-c4cc5ccccc5o4)nc(Cl)nc32)C(O)C1O,CEM-DNR leukemia cells,MTT,9.96 µM
COC(=O)N[C@H](C(=O)N[C@@H](C)CCC[C@@H](CO)N(C(C)C)S(=O)(=O)c1ccc(CO)cc1)C(c1ccccc1)c1ccccc1,T lymphoid cells,microscopy,>10 µM
C/C(=C\Cn1cnc2c(N)ncnc21)CO,CCL18,-,>100 µg/mL
Cc1cc(CCCCCCCOc2nc3ccccc3[nH]2)on1,WIS HELA,crystal violet,50 µg/mL
Cc1cccc(-c2cc3c(-c4ccnc(NC5CCCC5)n4)ccc(NC4CCCC4)n3n2)c1,VERO 76,-,>40 µM
Cc1cc(OCCCCCCc2ccnn2-c2ccccc2)c2ccccc2n1,WIS HELA,crystal violet,25 µg/mL
OC[C@H]1O[C@@H](n2ccc3c(-c4cccs4)nc(F)nc32)C(O)C1O,CEM-DNR leukemia cells,MTT,>50 µM
Oc1cccc(-c2cc3c(-c4ccnc(NC5CCCC5)n4)ccc(NC4CCCC4)n3n2)c1,VERO 76,-,>40 µM
Cc1nc(N)nc2c1ccn2[C@@H]1O[C@H](CO)C(O)C1O,CEM-DNR leukemia cells,MTT,35.1 µM
Oc1cc(-c2ccc(F)cc2)ccc1Oc1ccc(Cl)cc1Cl,Human foreskin fibroblasts,fluorescence,>10 µM
OC[C@H]1O[C@@H](n2ccc3c(-c4cccc5c4oc4ccccc45)nc(Cl)nc32)C(O)C1O,K562 leukemia cells,MTT,>50 µM
OCc1c(Cl)ccc(Oc2ccc(Cl)cc2Cl)c1O,Human foreskin fibroblasts,fluorescence,>10 µM
COC(=O)C1=C2Nc3ccccc3[C@@]23CCN2C[C@]4(C[C@@H]5C[C@]67CCO[C@H]6CCC6NC[C@@]8(c9cccc(OC)c9N(C4)[C@@H]58)[C@@H]67)[C@@H]4OCCC4(C1)[C@H]23,J-Lat Tat-GFP 82,absorbance,>10 µM
OC[C@H]1O[C@@H](n2ccc3c(-c4cc5ccccc5o4)nc(F)nc32)C(O)C1O,MRC-5 fibroblast,MTT,>150 µM
Cc1cc(CCCCCCCON(Cc2ccccc2)Cc2ccccc2)on1,WIS HELA,crystal violet,100 µg/mL
CN(C)c1nccc(-c2c(-c3ccc(F)cc3)nn3c(NC4CCCC4)cccc23)n1,VERO 76,-,>40 µM
NC(=S)Nc1cccc(OCCCCCOc2ccc(Br)cc2)c1,Ava5-EG(delta4AB)SEAP,MTS,>1 µM
Brc1cccc(-c2cc3c(-c4ccnc(NC5CCCC5)n4)ccc(NC4CCCC4)n3n2)c1,VERO 76,-,>100 µM
CCCN([C@H](CO)CCC[C@H](C)NC(=O)[C@@H](NC(=O)OC)C(c1ccccc1)c1ccccc1)S(=O)(=O)c1ccc(N)cc1,T lymphoid cells,microscopy,>10 µM
CSc1nsc(-c2ccc(C(F)(F)F)cc2)c1C#N,HEP-2,-,14 µM
CC(CCOc1ccc(-c2ccccc2)cc1)CCOc1cccc(NC(N)=S)c1,Ava5-EG(delta4AB)SEAP,MTS,>1 µM
Nc1nc2c(ncn2COC(CO)CO)c(=O)[nH]1,GPE,-,2900 µM
CC(C)C[C@@H]1NC(=O)[C@H](Cc2c[nH]c3ccccc23)NC(=O)[C@@H](CCCN)NC(=O)[C@H](CC(=O)NCC2CCCCC2)NC(=O)[C@H](C(C)C)NC(=O)[C@@H](CC(C)C)NC1=O,Hep2G,luminescence,39.8 µM
OCC(=CCn1cnc2c(Cl)ncnc21)CO,CCL18,-,>100 µg/mL
OC[C@H]1O[C@@H](n2ccc3c(-c4ccco4)nc(F)nc32)C(O)C1O,BJ fibroblasts,MTT,30.59 µM
Fc1ccc(-c2cc3c(-c4ccnc(NC5CCCC5)n4)ccc(NC4CCC4)n3n2)cc1,VERO 76,-,>40 µM
O=C1NNC(=O)c2c(ncn2[C@@H]2O[C@H](CO)[C@@H](O)[C@H]2O)N1,HFF (dividing cells),-,>100 µM
CSc1nsc(-c2ccccn2)c1C#N,L929,-,50 µM
CC(C)N([C@H](CO)CCCC(C)(C)NC(=O)[C@@H](N)C(c1ccccc1)c1ccccc1)S(=O)(=O)c1ccc(N)cc1,T lymphoid cells,microscopy,>10 µM